# PubChem BioAssay AID552 (SRMLSC, 2006)
# This is a selection; strong and weak results do not stand in their true shares. The source made the active and inactive calls. No stated cut-off is given here; in the data, active means inhibition above about 40%; inactive means the rest.
# Assay: antibacterial activity on E. coli BW25113 – strain BW25113 wild type, absorbance readout, primary screen (AID 552);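 further: bacteria exposed to compound for 20 hours at 37 °C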
# Settings: E. coli BW25113 growth inhibition, OD600; at 10 µM; stronger effect = higher value
# How it was run: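 Material: bacterial strain in a whole-cell growth screen; Amount: inoculum from a 1:1000 dilution of a 1.5 h subculture; Buffer or medium: LB plus kanamycin 50 µg/mL; Dosing: one dose, 10 µM final; Times: compound exposure of 20 h at 37 °C; Measured by: absorbance at 615 nm as a measure of bacterial growth.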
row,SMILES,inhibition
1,O=P(Nc1nccs1)(c1ccccc1)c1ccccc1,inactive: 6.33%
2,c1nnnn1CCn1cnnn1,inactive: -22.2%
3,COP1(=S)c2c(C)nn(CCC#N)c2N=C(c2ccc(F)cc2)N1C (stereo unspecified),inactive: -2.02%
4,O=C(COc1ccccc1)OC1CN2CCC1CC2 (stereo unspecified),inactive: 6.23%
5,CCOP1(=S)c2c(C)nn(CCC#N)c2N=C(c2ccccc2F)N1C (stereo unspecified),inactive: -2.15%
6,Cc1nn(-c2ccccc2)c2c1P(=O)(N1CCOCC1)N(C)C(c1ccccc1)=N2 (stereo unspecified),inactive: 20.4%
